# Data from US20090215029A1, “METHODS OF ISOLATING AND PURIFYING NUCLEIC ACID-BINDING BIOMOLECULES AND COMPOSITIONS INCLUDING SAME” (CytoCure, Inc., priority 2007, published 2009).
# Test system: nucleic acids to a bound factor
# Assay: Cross-linking / fixative activity: effectiveness in covalently linking nucleic acids to a bound factor
# Type: biochemical
# Conditions: additional fixative agents
substance,measurement,value
quinacrine mustard,Activity as fixative agent,some activity
